Consider one molecule from US20140018288A1, “X-DING-CD4 Peptide” (priority 2012, published 2014).

This data set has as its system human fetal astrocytes. Description: Cellular uptake of sX-DING-CD4 by human fetal astrocytes, confocal microscopy. As to conditions: 100 ng/ml. Type of data set: cell-based.

B1: X-DING-CD4: native form of X-DING-CD4 protein purified from the extracellular compartment of HIV-1 resistant T-cells, about 40 kDa (protein, listed as Homo sapiens)
chain: MADINGGGATLPQPLYQTSGVLTAGFAPYIGVGSGKGKLAFLNNDYSQFGTGTKNVHWAGSDSKLTSTELSTYASTKQAAWGKLIQVPSVATSVAIPFNKAGSNAVDLSVDQLCGVFSGRITTWNQLPATGRTGNIVVVYRNEASGTTELFTRFLTAKCVNESKKFVVTTNFADSFGVPAGAVPAVTSQGVMTKLNAGDGRITYMSPDYAAPTLAGLDDATKVAKVAGVSPAPDNVSAAIAAVPVPAAANVALQNAWVPVFAAAADANDPSVVPYPSTGFPILGFTNLIFSQ
In the case of B1, the “cellular localization of X-DING-CD4 after exposure” value is, setting by setting: (30 minutes) “could be detected on cell membranes”; (6 hours) “could be detected on cell membrane, in cytosol, and in nucleus”.
